Anti-infective test results gathered from many reports (values: NIAID ChemDB through PubChem).

All rows: whole-cell or culture tests; species: Plasmodium falciparum; read-out: EC50

Rows are shuffled and stem from different studies.

compound	strain	changes	conditions	cell line	value
CCOC(=O)C1=C(O)/C(=C\c2cc(C)n(C3CCN(Cc4cccnc4)CC3)c2C)N=C1C	K1	Chloroquine/pyrimethamine-resistant	-	-	0.46 µM
CN(C)c1ccc2nc3ccc(=[N+](C)C)cc-3sc2c1	Clinical isolates	-	-	-	0.0033 µM
NC1CCC(NC2=CCC3=NC=C(c4cn[nH]c4)[N+]3=N2)CC1	-	-	-	-	0.103 µg/mL
COc1ccc(/C=C/C(=O)c2ccc(N3CCCC3)cc2)c(OC)c1	-	-	-	-	2.37 µg/mL
Fc1ccc(Nc2nc(NCCCNc3ccnc4cc(Cl)ccc34)nc(N3CCOCC3)n2)cc1	W2	-	-	-	0.33 µM
COc1ccc(OC)c(/C=C/C(=O)c2ccc(N3CCCC3)cc2)c1	-	-	-	-	5.53 µg/mL
O=C(O)CCc1cccc2c1B(O)OC2	3D7	-	-	-	0.044 µM
COc1cc(C(C)=O)ccc1OC1OC(COC(=O)/C=C/c2ccc(O)c(O)c2)C(O)C(O)C1O	3D7	-	-	Erythrocytes	>25 µM
CC(=O)OC[C@@]12C(CC(C)(C)[C@@H](OC(=O)CC(C)C)[C@@H]1O)C1=CCC3[C@@]4(C)CC[C@H](O[C@@H]5O[C@H](C(=O)O)[C@@H](O)[C@H](O[C@@H]6OC[C@H](O)[C@H](O[C@@H]7OC[C@H](O)[C@H](O)[C@H]7O)[C@H]6O)[C@H]5O[C@@H]5O[C@H](CO)[C@H](O)[C@H](O)[C@H]5O)[C@@](C)(C=O)C4CC[C@@]3(C)[C@]1(C)C[C@H]2O	GHA	-	-	-	>64 µM
COc1ccc(Nc2nc(NCCNc3ccnc4cc(Cl)ccc34)nc(N3CCOCC3)n2)cc1	D6	-	-	-	0.25 µM
c1ccc(C2CC3(N4CCCCC4)CC(NCCCN4CCCC4)C2C(c2ccccc2)C3)cc1	K1	-	-	human red blood cells	0.23 µM
Cc1cc2c(cc1O)C(=O)c1ccccc1C2=O	3D7	-	-	-	0.34 µM
CCc1ccc(Nc2nc(NCCNc3ccnc4cc(Cl)ccc34)nc(N3CCOCC3)n2)cc1	W2	-	-	-	0.67 µM
O=C(NCCN1CCOCC1)c1sc(-c2ccccc2)nc1-c1ccccc1	3D7	-	-	-	>19.3 µg/mL
C[C@H](NC(=O)[C@@H](O)C1CCCCC1)C(=O)N[C@@H]1C(=O)N(C)c2ccccc2-c2ccccc21	-	-	-	-	0.065 µM
Cc1ccccc1C1(O)C(N)=Nc2ccccc21	Dd2	-	-	-	0.152 µM
CCN(CCO)CCCC(C)Nc1ccnc2cc(Cl)ccc12	3D7	-	-	-	0.0128 µM
Cc1c(-c2cccc(Cc3ccc(OC(F)(F)F)cc3)c2)[nH]c2ccc(Cl)cc2c1=O	3D7	-	-	-	0.034 µM
COc1ccc(C2(O)C(N)=Nc3ccc(F)cc32)cc1	3D7	-	-	-	0.085 µM
COc1cc(/C=C/C(=O)c2ccc(-n3cnc4ccccc43)cc2)cc(OC)c1OC	-	-	-	-	7.6 µg/mL
O=C(Nc1cc(C(F)(F)F)ccc1-n1cncn1)C1(c2cccc(C(F)(F)F)c2)CC1	3D7A	-	-	-	0.003 µM
CC(=O)O[C@H]1[C@H](OC(=O)CC(C)C)C(C)(C)CC2C3=CCC4[C@@]5(C)CC[C@H](O[C@@H]6O[C@H](C(=O)O)[C@@H](O)[C@H](O[C@@H]7O[C@H](CO)[C@H](O)[C@H](O[C@@H]8OC[C@H](O)[C@H](O)[C@H]8O)[C@H]7O)[C@H]6O[C@@H]6O[C@H](CO)[C@H](O)[C@H](O)[C@H]6O)[C@@](C)(C=O)C5CC[C@@]4(C)[C@]3(C)C[C@@H](O)[C@]21CO	GHA	-	-	-	>32 µM
C[C@H](NC(=O)[C@@H](O)c1cc(F)cc(F)c1)C(=O)N[C@@H]1C(=O)N(C)c2ccccc2-c2ccccc21	-	-	-	-	0.1 µM
O=[N+]([O-])c1ccc(N/N=C/c2cn(-c3ccc(Cl)cc3)nc2-c2ccccc2)c([N+](=O)[O-])c1	RKL9	-	-	-	0.068 µM
NC1=Nc2cccc(Br)c2C1(O)Cc1ccccc1	Dd2	-	-	-	>5 µM
CN(Cc1ccccc1)Cc1ccc(CNc2ccnc3cc(Cl)ccc23)cc1	K1	-	-	-	0.026 µM
COc1c(C)c(O)cc2c1C(=O)c1ccccc1C2=O	3D7	-	-	-	>37 µM
COc1ccc(Nc2nc(NCCCNc3ccnc4cc(Cl)ccc34)nc(N3CCOCC3)n2)cc1	D6	-	-	-	0.16 µM
O=C(Nc1cc(C(F)(F)F)ccc1-n1cncn1)C1(c2ccccc2)CC1	TM90C2B	-	-	-	0.076 µM
COc1ccc(/C=C/C(=O)c2ccc(N3CCN(C)CC3)cc2)cc1	-	-	-	-	6.9 µg/mL
CCc1ccc(Nc2nc(NCCCCNc3ccnc4cc(Cl)ccc34)nc(N3CCOCC3)n2)cc1	W2	-	-	-	0.18 µM
CCCCCCCCCCCCC#CC(=O)O	K1	-	-	-	121.7 µM
COc1cccc2[nH]c(-c3ccc(Cc4ccc(OC(F)(F)F)cc4)cc3)c(C)c(=O)c12	3D7	-	-	-	0.465 µM
CC(=O)OC[C@@]12C(CC(C)(C)[C@@H](OC(=O)CC(C)C)[C@@H]1O)C1=CCC3[C@@]4(C)CC[C@H](O[C@@H]5O[C@H](C(=O)O)[C@@H](O)[C@H](O[C@@H]6O[C@H](CO)[C@H](O)[C@H](O[C@@H]7OC[C@H](O)[C@H](O)[C@H]7O)[C@H]6O)[C@H]5O[C@@H]5O[C@H](CO)[C@H](O)[C@H](O)[C@H]5O)[C@@](C)(C=O)C4CC[C@@]3(C)[C@]1(C)C[C@H]2O	GHA	-	-	-	>64 µM
COc1ccc2[nH]c(-c3ccc(Cc4ccc(OC(F)(F)F)cc4)cc3)c(C)c(=O)c2c1	3D7	-	-	-	0.008 µM
O=C(NCCN1CCCC1)c1sc(-c2ccccc2)nc1-c1ccccc1	3D7	-	-	-	>19.3 µg/mL
COc1ccc(/C=C/C(=O)c2ccc(-n3cccc3)cc2)cc1OC	-	-	-	-	6.28 µg/mL
CN1CCC(NC2=CCC3=NC=C(c4cnn(-c5ccc(F)cc5F)c4)[N+]3=N2)CC1	-	-	-	-	0.317 µM
COc1ccc2c(c1OC)C(=O)c1ccc(C)cc1C2=O	3D7	-	-	-	1.1 µM
COc1ccc(/C=C/C(=O)c2ccc(-n3cncn3)cc2)cc1OC	-	-	-	-	5.85 µg/mL
CCc1nc2nc(C)cc(Nc3ccc(Cl)cc3)n2n1	3D7	-	-	-	3.3 µM
Clc1ccc2c(NCCCNc3nc(Nc4ccccc4)nc(N4CCOCC4)n3)ccnc2c1	W2	-	-	-	1.05 µM
O=C(CCc1ccccc1)c1ccccc1OCC(O)CN1CCN(c2ccccc2)CC1	3D7	-	-	-	0.09 µM
CCOc1ccc(F)cc1C1(O)c2cc(Cl)ccc2NC1N	3D7	-	-	-	0.028 µM
Cc1ccc(-n2cc(C=O)c(-c3ccccc3)n2)cc1	RKL9	-	-	-	0.051 µM
NC1=Nc2ccc(I)cc2C1(O)c1ccccc1	Dd2	-	-	-	0.338 µM
COc1cc(C(C)=O)ccc1OC1CC(O)C(O)C(COC(=O)/C=C/c2ccccc2)O1	3D7	-	-	Erythrocytes	>25 µM
CCN(CC)CCCC(C)Nc1ccnc2cc(Cl)ccc12	Dd2	-	24 h	-	>1 µg/mL
Clc1ccc2c(NCCCCNc3nc(Nc4ccccc4)nc(N4CCOCC4)n3)ccnc2c1	D6	-	-	-	0.29 µM
COc1ccc(OC)c(/C=C/C(=O)c2ccc(N3CCOCC3)cc2)c1	-	-	-	-	3.26 µg/mL
CCN(CC)CCCC(C)Nc1ccnc2cc(Cl)ccc12	NF54	-	-	-	0.011 µM
CN(Cc1ccc(Cl)cc1)Cc1ccccc1CNc1ccnc2cc(Cl)ccc12	D10	-	-	-	>1 µM
CN1CCN(CC(=O)NC2CC3(N4CCCCC4)CC(c4ccccc4)C2C(c2ccccc2)C3)CC1	K1	-	-	human red blood cells	0.38 µM
CN1CCC(NC2=CCC3=NC=C(c4cnn(-c5ncccc5F)c4)[N+]3=N2)CC1	-	-	-	-	1.28 µM
CN1CCN(CC(=O)NC2CC3(N4CCN(C)CC4)CC(c4ccccc4)C2C(c2ccccc2)C3)CC1	K1	-	-	human red blood cells	0.62 µM
COc1ccc(/C=C/C(=O)c2ccc(N3CCCC3)cc2)cc1OC	-	-	-	-	2.91 µg/mL
CN1CCN(CCC(=O)NC2CC3(N4CCCCC4)CC(c4ccccc4)C2C(c2ccccc2)C3)CC1	K1	-	-	human red blood cells	0.28 µM
COc1ccc(/C=C/C(=O)c2ccc(N3CCOCC3)cc2)cc1OC	-	-	-	-	5.16 µg/mL

8 of the rows above, restated:

COc1ccc(/C=C/C(=O)c2ccc(N3CCN(C)CC3)cc2)cc1 ; value: 6.9 µg/mL
CCc1nc2nc(C)cc(Nc3ccc(Cl)cc3)n2n1 ; strain: 3D7 ; value: 3.3 µM
CN1CCN(CC(=O)NC2CC3(N4CCN(C)CC4)CC(c4ccccc4)C2C(c2ccccc2)C3)CC1 ; strain: K1 ; cell line: human red blood cells ; value: 0.62 µM
CN(Cc1ccc(Cl)cc1)Cc1ccccc1CNc1ccnc2cc(Cl)ccc12 ; strain: D10 ; value: >1 µM
COc1cc(/C=C/C(=O)c2ccc(-n3cnc4ccccc43)cc2)cc(OC)c1OC ; value: 7.6 µg/mL
Fc1ccc(Nc2nc(NCCCNc3ccnc4cc(Cl)ccc34)nc(N3CCOCC3)n2)cc1 ; strain: W2 ; value: 0.33 µM
COc1ccc2c(c1OC)C(=O)c1ccc(C)cc1C2=O ; strain: 3D7 ; value: 1.1 µM
O=C(Nc1cc(C(F)(F)F)ccc1-n1cncn1)C1(c2cccc(C(F)(F)F)c2)CC1 ; strain: 3D7A ; value: 0.003 µM

An empty or dashed field is not shown. ECn: concentration that inhibits the pathogen or its effect by n%.